Experimental data from US20150197559A1 (University of California, published 2015).

Key:
BoNT/A1 (Hall hyper) [1] = target: T1, BoNT/A1 (Hall hyper) (Clostridium botulinum); assay: flow cytometry, yeast-displayed scFv, soluble toxin
BoNT/A1 (Hall hyper) [2] = target: T1, BoNT/A1 (Hall hyper); assay: flow cytometry, yeast-displayed parental scFv
BoNT/A1 (Hall hyper) [3] = target: T1, BoNT/A1 (Hall hyper); assay: flow cytometry, yeast-displayed scFv, soluble toxin; remark: listed apart in the source
BoNT/A1 (Hall hyper) [4] = target: T1, BoNT/A1 (Hall hyper); assay: as above; remark: listed apart in the source

B1: ING1 scFv (scFv)
scFv: QVQLQQSGGGLVQPGGSLRLSCAASGFTFSNYAMTWVRQAPGKGLEWVSSISVGGSDTYYADSVKGRFTVSRDNSKNTLLLQMNSLRAEDTAVYYCAKVRTKYCSSLSCFAGFDSWGQGTRVTVSSGGGGSGGGGSGGGGS[gap - about 100 residues]TFGGGTKVDIK
BoNT/A1 (Hall hyper) [1]
  Kd: 5.28 nM
BoNT/A1 (Hall hyper) [2]
  Kd: 5.28 nM
BoNT/A1 (Hall hyper) [3]
  Kd: 5.28 nM
BoNT/A1 (Hall hyper) [4]
  Kd: 5.28 nM

B2: 4A1 scFv (scFv)
scFv: QVQLVQSGGGLAQPGGSLRLSCAASGFTFGSYSMNWVRQAPGKGLEWVSSITGNSGLIYYADSVKGRFTVSRDNAKNSLFLHMHSLRADDTAVYYCARDPGWIYSDTSAAGWFDPWGHGTLVTVSSGGGGSGGGGSGGGGS[gap - about 100 residues]
BoNT/A1 (Hall hyper) [3]
  Kd: 7.4 nM
